Compound potency records, mixed from different reports. Data source: NIAID ChemDB in PubChem.

Shared fields: growth or infection tests; agent: Herpes simplex virus 2; read-out: EC50

Blank or dashed fields: not listed here.

| SMILES | strain | cells | read by | result |
|---|---|---|---|---|
| O=c1c2ccccc2[nH]c2cc(O)cc(O)c12 |  | HEF | plaque count | 7.3 µg/mL |
| COC(=O)[C@H](C)NP(=O)(OC[C@H]1C/C1=C/n1cnc2c(=O)[nH]c(N)nc21)Oc1ccccc1 |  | HFF | plaque count | 39.2 µM |
| CCCCCc1c(O)cc(O)c2c(=O)c3ccccc3n(C)c12 |  | HEF | plaque count | 10 µg/mL |
| O=c1[nH]c(=O)n([C@H]2C[C@H](O)[C@@H](CO)O2)c[c]1[Hg+].OCC[S-] | HG-25 | HELA TK- | virus yield | 0.053 µg/mL |
| C[CH2][Sn]([Cl])([Cl])[CH2]C.c1cnc2c(c1)ccc1cccnc12 | MS | HFF | plaque count | 9 µg/mL |
| C[C@]12CC[C@H]3[C@@H](CC[C@]4(O)C[C@@H](O[C@@H]5O[C@@H](O)[C@H](O)[C@@H](O)[C@H]5O)CC[C@]34C=O)[C@@]1(O)CC[C@@H]2C1=CC(=O)OC1 | 333 | GMK AH1 | plaque count | 0.02 µM |
| O=C(O)P(=O)(O)O | V10183 | SIRC | plaque count | <500 µM |
| COc1c(O)ccc2c(=O)c3c(O)cc4c(c3n(C)c12)C=CC(C)(C)O4 |  | HEF | plaque count | 1.3 µg/mL |
| Nc1ccn(C[C@@H](CO)OCP(=O)(O)O)c(=O)n1 | PCV-resistant/B | HEL | cytopathic effect | 0.042 µg/mL |
| COc1cc(O)c2c(=O)c3cccc(O)c3n(C)c2c1OC | Aphidicolin-resistant | HEF | plaque count | 0.7 µg/mL |
| COC(=O)[C@H](C)NP(=O)(OC[C@H]1C/C1=C/n1cnc2c(OC)nc(N)nc21)Oc1ccccc1 |  | HFF | plaque count | 0.88 µM |
| [CH3][Sn]([CH3])([Br])[Br].c1cnc2c(c1)ccc1cccnc12 | MS | HFF | plaque count | 72 µg/mL |
| CCCCCc1c(OC)cc(O)c2c(=O)c3cccc(O)c3n(C)c12 |  | HEF | plaque count | 5 µg/mL |
| Nc1ncnc2c1ncn2C[C@@H](CO)OCP(=O)(O)O | PCV-resistant/B | HEL | cytopathic effect | 0.025 µg/mL |
| CC(=O)O[C@H]1[C@@H](O)C[C@H](O[C@H]2[C@@H](O)C[C@H](O[C@H]3[C@@H](O)C[C@H](O[C@H]4CC[C@@]5(C)[C@H](CC[C@@H]6[C@@H]5CC[C@]5(C)[C@@H](C7=CC(=O)OC7)CC[C@]65O)C4)O[C@@H]3C)O[C@@H]2C)O[C@@H]1C | 333 | GMK AH1 | plaque count | 0.5 µM |
| [Br][Sn]([Br])([c]1ccccc1)[c]1ccccc1 | MS | HFF | plaque count | 1.1 µg/mL |
| C[C@H]1OC(O[C@H]2[C@@H](O)C[C@H](O[C@@]3(C)[C@@H](O)C[C@H](O[C@H]4CC[C@@]5(C)[C@H](CC[C@@H]6[C@@H]5C[C@@H](O)[C@]5(C)[C@@H](C7=CC(=O)OC7)CC[C@]65O)C4)O[C@@H]3C)O[C@@H]2C)C[C@H](O)[C@@H]1O | 333 | GMK AH1 | plaque count | 0.65 µM |
| CCCCCc1c2c(c3[nH]c4ccccc4c(=O)c3c1O)C=CC(C)(C)O2 |  | HEF | plaque count | >20 µg/mL |
| O=C(O)CP(=O)(O)O | G | HEL | cytopathic effect | 7.4 µg/mL |
| CCCCCc1c2c(c3c(c1O)c(=O)c1cccc(O)c1n3C)C=CC(C)(C)O2 |  | HEF | plaque count | 2 µg/mL |
| Nc1nc(N)c2ncn(CCOCP(=O)(O)O)c2n1 | PCV-resistant/A | HEL | cytopathic effect | 1.6 µg/mL |
| CC(=O)O[C@H]1C[C@H](O[C@H]2[C@@H](O)C[C@H](O[C@H]3[C@@H](O)C[C@H](O[C@H]4CC[C@@]5(C)[C@H](CC[C@@H]6[C@@H]5CC[C@]5(C)[C@@H](C7=CC(=O)OC7)CC[C@]65O)C4)O[C@@H]3C)O[C@@H]2C)OC(C)[C@H]1O[C@@H]1O[C@H](CO)[C@@H](O)[C@H](O)[C@H]1O | 333 | GMK AH1 | plaque count | 0.24 µM |
| C[CH2][Sn]([Cl])([Cl])[CH2]C.c1ccc(-c2nc3ccccc3[nH]2)nc1 | MS | HFF | plaque count | 8.2 µg/mL |
| O=c1[nH]c(=O)n([C@H]2C[C@H](O)[C@@H](CO)O2)c[c]1[Hg+] | HG-25 | HELA TK- | virus yield | 0.148 µg/mL |
| C[C@H]1O[C@@H](O[C@H]2[C@@H](O)C[C@H](O[C@H]3CC[C@@]4(C)[C@H](CC[C@@H]5[C@@H]4CC[C@]4(C)[C@@H](C6=CC(=O)OC6)CC[C@]54O)C3)O[C@@H]2C)C[C@H](O)[C@@H]1O | 333 | GMK AH1 | plaque count | 0.09 µM |
| O=c1[nH]c(=O)n([C@H]2C[C@H](O)[C@@H](CO)O2)c[c]1[Hg+].O[C@H](C[S-])[C@H](O)CS | HG-25 | KB | virus yield | 0.144 µg/mL |
| COc1cc(OC)c2c(=O)c3ccc(OC)c(OC)c3n(C)c2c1 |  | HEF | plaque count | >20 µg/mL |

A second listing of 2 rows from above:

SMILES | strain | cells | read by | result
O=C(O)P(=O)(O)O | V10183 | SIRC | plaque count | <500 µM
CCCCCc1c(OC)cc(O)c2c(=O)c3cccc(O)c3n(C)c12 |  | HEF | plaque count | 5 µg/mL

Lines come from different laboratories, so protocols vary. ECn is the concentration giving n% inhibition of infection, replication or growth.